PubChem BioAssay AID1259414 | Drosophila RNAi Screening Center | 2018

Test: 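Host factors increasing or decreasing Wolbachia levels in cultured fly cells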 (primary screen)
Cells: Drosophila JW18 cells infected with Wolbachia
Reagents: long dsRNA against Drosophila genes, 0.25 µg dsRNA per well of a 384-well plate
Time to read-out: 5 days
Conditions: cells persistently infected with Wolbachia before knock-down; no added drug
Detection: 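Automated imaging of bacterial rRNA staining divided by host cell count, reported as plate-normalised robust z-score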
Scale: Wolbachia per cell robust z: higher = more Wolbachia per host cell than the plate typical
Rule for the call: 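Hit when robust z is 1.5 or more, or -1.5 or less, in at least two of three replicates; excludes dsRNAs with several or no targets, genes not expressed in JW18 and well A1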
The screen tested about 24,000 reagents; this is a random part of those that have a named target and a result. In the full data, about 1,210 (5%) were called active. 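Inactive calls also include excluded dsRNAs with several or no targets, genes unexpressed in JW18, and well A1, regardless of score.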 Entries without a mark were called inactive. The numbers tell different reagents against one gene apart. Names joined by + are all predicted targets of the reagent. No sequences are given here.

Target gene | reagent no. | Wolbachia per cell robust z, rep 1 | Wolbachia per cell robust z, rep 2 | Wolbachia per cell robust z, rep 3
Ptp36E | 1 | -0.519 | -0.0542 | 1.57
ppk14 | 1 | 0.0155 | -0.646 | -0.479
CG30196 | 1 | -3.26 (active) | -0.422 | -6.98
ari-1 | 1 | 0.541 | -0.263 | -3.42
ari-1 | 2 | 0.248 | 0.335 | 0.676
ari-1 | 3 | 1.75 | 0.17 | 0.737
CG5355 | 1 | -0.513 | 0.0936 | 0.535
CG15506 | 1 | -2.29 | -0.0602 | 0.149
CG15506 | 2 | -0.227 | 1.24 | -0.37
Act87E | 1 | 0.558 | 0.513 | -0.354
Act87E | 2 | 0.0687 | 0.351 | -0.375
CG10226 | 1 | -0.0109 | 1.11 | 0.422
Git | 1 | 0.256 | 0.952 | 0.675
Git | 2 | -0.541 | 1.06 | 0.211
CG13231 | 1 | -1.14 | -3.55 | -0.505
CG13231 | 2 | -4.56 | -1.68 | -1.74
Sarm | 1 | -0.141 | -0.975 | 0.222
Sarm | 2 | -0.0168 | 0.27 | 0.23
Sarm | 3 | -0.616 | -1.21 | -0.354
Sarm | 4 | -2.92 | -1.14 | 0.761
Sarm | 5 | 0.26 | -1.23 | 0.196
Sarm | 6 | 0.316 | -1.29 | -0.98
Sarm | 7 | 1.13 | 0.0675 | 0.245
CG30324 | 1 | 0.181 | -1.88 | 0.969
CG30324 | 2 | -1.11 | -1.05 | -1.02
CG34291 + asRNA:CR31084 | 1 | -1.05 | -0.944 | -2.34
Rab5 | 1 | 0.361 (active) | 1.86 | 1.54
Rab5 | 2 | 0.279 | 3 | 1.11
ERp60 | 1 | 1.03 | 0.286 | 0.555
ERp60 | 2 | 0.778 | 1.22 | -0.92
CG12708 + CG15646 | 1 | -0.638 | 0.481 | 0.226
CG32857 + CG32500 + CG33502 | 1 | 0.699 | 0.484 | -0.0143
mask | 1 | -5.16 | 0.326 | 1.43
mask | 2 | -0.213 (active) | 1.72 | 2.11
mask | 3 | 0.621 | -1.03 | -2.09
mask | 4 | -0.0155 | 0.69 | 0.000285
Snx17 | 1 | -6.77 | 0.593 | 0.135
Snx17 | 2 | 1.22 | 1.53 | 1.23
CG3609 | 1 | -1.93 | 0.86 | 1.37
CG3609 | 2 | -6.55 | 1.01 | 0.526
MED22 | 1 | -0.336 | 0.234 | -0.412
CG34278 | 1 | -0.823 | 0.448 | -0.0396
gudu | 1 | -0.508 | -2.61 | -1.34
CG33475 | 1 | 0.681 | -0.215 | 0.662
GABA-B-R3 | 1 | 0.751 | 0.123 | -0.0917
GABA-B-R3 | 2 | -0.176 | -0.0166 | -0.25
CG15820 | 1 | -1.17 | -1.09 | -6.78
CG15820 | 2 | -0.15 | -0.82 | 0.126
lncRNA:sphinx | 1 | 1.09 | 0.848 | -0.577
7B2 | 1 | 0.239 | 0.886 | 0.608
RpS9 | 1 | 0.807 (active) | 2.16 | 5.1
galectin | 1 | -6.34 | 0.0844 | -0.821
pyx + CG13877 | 1 | -0.00456 | 0.266 | -1.67
CG13070 | 1 | 0.269 | 1.37 | 0.637
Phb2 | 1 | 1.29 | -1.89 | 1.1
CG30393 | 1 | -1.01 | 0.07 | -0.487
CG30393 | 2 | 0.356 | 0.875 | 1.03
NAT1 | 1 | 0.852 (active) | -7.36 | -8.12
NAT1 | 2 | 0.92 | 0.436 | 0.826
CG34328 | 1 | -0.293 | 0.766 | -6.3
CG34025 | 1 | 0.419 | -0.248 | 0.828
CG32536 | 1 | -1.55 (active) | 0.164 | -1.68
Cyp12a4 | 1 | 0.457 | 0.393 | -1.07
Cyp12a4 | 2 | 0.436 | -0.319 | -0.734
AsnS | 1 | -3.4 | -0.336 | 0.211
CG9993 | 1 | -0.318 | 0.0468 | 1.19
CG10013 | 1 | 0.132 | -6.78 | -5.96
CG11417 | 1 | 1.58 | 0.23 | 0.479

Limited to “Wolbachia per cell robust z, rep 3” (9 entries from above):
CG13231 #2 = -1.74
Sarm #1 = 0.222
Sarm #2 = 0.23
Sarm #3 = -0.354
Sarm #4 = 0.761
Sarm #5 = 0.196
Sarm #6 = -0.98
Sarm #7 = 0.245
CG30324 #1 = 0.969
